In the data set the target is WT-NP-FLAG (influenza nucleoprotein) (Influenza A virus (Udorn)) (UniProt P06827). Put plainly: EMSA. Particulars: Binding buffer, pH and temperature not stated, protein in a lysate after overexpression, residues 1-498, protein details: C-terminal short glycine linker + FLAG (DYKDDDDK), label: 5' biotin, single-stranded DNA. On the technique in general: In EMSA bound probe runs differently from free probe, usually more slowly.

Data on 1 sequence can be found in publication PMC4177073.

Construct, isoform or probe ends are uncertain for at least one entry. Where cells or extracts were used, other partners may take part.

Consider “AGCAAAAGCAGGGTGACAAAGACATGATAAAAAACACCCTTGTTTCTACT [biotin-ssDNA of 5' and 3' vRNA ends]”, for which the binding result was “binds”.
